Data as given in PubChem BioAssay AID1224833 (University of Georgia, 2016).

- Purpose: 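Host factors restraining rotavirus as candidate antiviral genes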 (primary screen)
- Cells: monkey MA104 kidney cells
- Reagent: siRNA pool against human genes, 50 nM
- Duration: 48 h knock-down before infection; read 24 h after infection
- Conditions: infection with rotavirus strain RV3 two days after transfection; infectious dose for this stage not given
- Measurement: 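z-score of rotavirus antigen signal per well, from a fluorescent immunoassay, relative to non-targeting control wells on the same plate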
- Reading the numbers: z-score vs non-targeting control: higher = more rotavirus replication than with non-targeting control
- Call rule: In these data the active calls have z-score vs non-targeting control at about -1 or lower, or at about 1 or higher
- Calls: active = z-score beyond 1 either way; inactive = z-score within 1 of zero
In all, the deposit lists about 12,000 reagents; below is an unselected part. About 5,600 of them (46%) count as active. 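Active calls cover z-scores past 1 in both directions, so they include lowered as well as raised rotavirus replication.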 A number with no mark means an inactive call.

For APLF, the entry reads z-score vs non-targeting control -0.962.
NDEL1 scored z-score vs non-targeting control -0.583.
Against NF1, the values are z-score vs non-targeting control 2.53 (active).
After knock-down of PRDM10, the screen gave z-score vs non-targeting control -0.151.
LCE2B gave z-score vs non-targeting control 0.974.
Knock-down of MYO1B came out at: z-score vs non-targeting control -1.35 (active).
After knock-down of TTC17, the screen gave z-score vs non-targeting control -1.93 (active).
Depletion of POLR2B gave: z-score vs non-targeting control -1.68 (active).
TXLNB scored z-score vs non-targeting control 1.53 (active).
After knock-down of GYPC, the screen gave z-score vs non-targeting control -1.82 (active).
Knock-down of SOX12 came out at: z-score vs non-targeting control -0.0535.
With knock-down of XRCC3 the results were z-score vs non-targeting control -1.06 (active).
With knock-down of OR2W1, the record shows z-score vs non-targeting control -0.275.
Against ZNF75D, the values are z-score vs non-targeting control -1.05 (active).

An excerpt taken from the entries so far, as a working copy:
NDEL1: z-score vs non-targeting control = -0.583
NF1: z-score vs non-targeting control = 2.53 (active)
PRDM10: z-score vs non-targeting control = -0.151
LCE2B: z-score vs non-targeting control = 0.974

The listing continues.
After knock-down of PCBP3, the record shows z-score vs non-targeting control -1.13 (active).
ANTXR2 gave z-score vs non-targeting control -0.75.
After knock-down of DENND1A, the record shows z-score vs non-targeting control -0.733.
Against ZNF383, the entry reads z-score vs non-targeting control -0.823.
Silencing of CRYAB gave: z-score vs non-targeting control 0.146.
For PMM1, the values are z-score vs non-targeting control -2.47 (active).
For SPTLC3, the entry reads z-score vs non-targeting control 0.579.
Against TMEM87A, the entry reads z-score vs non-targeting control 1.17 (active).
For HEPACAM2, the values are z-score vs non-targeting control 1.78 (active).
Depletion of PAFAH2 gave: z-score vs non-targeting control 1.81 (active).
KRTAP17-1 showed z-score vs non-targeting control 1.26 (active).
CELA2A scored z-score vs non-targeting control 2.31 (active).
For MATN3 the deposit lists z-score vs non-targeting control -0.382.
Knock-down of JAM3 gave: z-score vs non-targeting control 0.536.
ABCG1 showed z-score vs non-targeting control -0.536.
After knock-down of SLC25A10 the results were z-score vs non-targeting control -0.748.
Silencing of PLAU gave: z-score vs non-targeting control 3.53 (active).
GPR4 scored z-score vs non-targeting control -1.19 (active).
